Measured values from several laboratories, pooled; numbers as filed in NIAID ChemDB.

Common to all: tests in culture; organism: Aspergillus flavus; endpoint: zone

An empty or dashed field is not shown. Rows are shuffled and stem from different studies. Zone: diameter of growth inhibition.

| structure | strain | dose | read by | result |
|---|---|---|---|---|
| CCCCc1nc(Cl)c(-c2cc(-c3ccc(OC)cc3)nc3c2C(=O)c2ccccc2-3)n1Cc1ccccc1 | MTCC 8188 | 10 µg/disc | agar diffusion | 6 mm |
| COc1ccc(NCc2cc3cc(C)ccc3nc2Cl)cc1 | MTCC 277 | 200 µg/mL | agar diffusion | 10.4 mm |
| [Al]#[P] | - | 1 mg/mL | agar diffusion | 32.42 mm |
| N/N=C/c1c(O)[nH]c(=S)[nH]c1=O | - | 10000 µg/mL | agar diffusion / agar | 36 mm |
| Oc1cccc2cccnc12 | - | 25 µg/mL | agar diffusion / agar | 19 mm |
| Cc1ccc2nc(Cl)c(CNc3ccccc3Cl)cc2c1 | MTCC 277 | 200 µg/mL | agar diffusion | 7.93 mm |
| COc1cc(C2C(C#N)=C(NS(=O)(=O)c3ccccc3)Oc3[nH]c(=S)[nH]c(=O)c32)cc(OC)c1OC | - | 10000 µg/mL | agar diffusion / agar | 0 mm |
| Cc1ccc2nc(Cl)c(CNc3ccc(Cl)c(Cl)c3)cc2c1 | MTCC 277 | 200 µg/mL | agar diffusion | 13.93 mm |
| CCCCc1nc(Cl)c(-c2cc(-c3ccc4ccccc4c3)nc3c2C(=O)c2ccccc2-3)n1Cc1ccccc1 | MTCC 8188 | 10 µg/disc | agar diffusion | 6 mm |
| CCOC(=O)C1=C(N)Oc2[nH]c(=S)[nH]c(=O)c2C1c1ccc(Cl)cc1 | - | 10000 µg/mL | agar diffusion / agar | 0 mm |
| CCCCc1nc(Cl)c(-c2cc(-c3cc(OC)c(OC)c(OC)c3)nc3c2C(=O)c2ccccc2-3)n1Cc1ccccc1 | MTCC 8188 | 10 µg/disc | agar diffusion | 6 mm |
| NS(=O)(=O)c1ccc(NCc2ccc(O)c3ncccc23)cc1 | - | 25 µg/mL | agar | 32 mm |
| CCCCc1nc(Cl)c(-c2cc(-c3ccc(Br)cc3)nc3c2C(=O)c2ccccc2-3)n1Cc1ccccc1 | MTCC 8188 | 10 µg/disc | agar diffusion | 7 mm |
| COC1=CC(=O)C[C@@H](C)[C@]12Oc1c(Cl)c(OC)cc(OC)c1C2=O | - | 250 µg/disc | agar diffusion | 34 mm |
| Cc1ccc2nc(Cl)c(CNc3ccccc3)cc2c1 | MTCC 277 | 200 µg/mL | agar diffusion | 10.9 mm |
| CCCCc1nc(Cl)c(-c2cc(-c3ccc4sc5ccccc5c4c3)nc3c2C(=O)c2ccccc2-3)n1Cc1ccccc1 | MTCC 8188 | 10 µg/disc | agar diffusion | 10 mm |

Again, the opening 2 rows:

{"structure": "CCCCc1nc(Cl)c(-c2cc(-c3ccc(OC)cc3)nc3c2C(=O)c2ccccc2-3)n1Cc1ccccc1", "strain": "MTCC 8188", "dose": "10 µg/disc", "read by": "agar diffusion", "result": "6 mm"}
{"structure": "COc1ccc(NCc2cc3cc(C)ccc3nc2Cl)cc1", "strain": "MTCC 277", "dose": "200 µg/mL", "read by": "agar diffusion", "result": "10.4 mm"}